Anti-infective test results gathered from many reports (values: NIAID ChemDB through PubChem).

Shared fields: target-level tests

Blank or dashed fields: not listed here. Inhibition is in % at the dose shown (toxicity tests: loss of growth or viability). ICn is the concentration giving n% inhibition. Rows are shuffled and stem from different studies. a–b is a range or a potency band.

compound	protein	strain	read-out	method	conditions	species	tested at	value
C=C[C@@H]1C[C@]1(NC(=O)[C@@H]1C[C@@H](Oc2cc(-c3ccccc3)nc3cc(OC)ccc23)CN1C(=O)[C@@H](NC(=O)Oc1ccccc1)C(C)(C)C)C(=O)NS(=O)(=O)C1CC1	NS3/NS4A protease	BMS	IC50			Hepatitis C virus		<0.05 µM
CC[C@H](C)[C@H](NC(=O)[C@H](CC(C)C)NC(=O)[C@@H](CC(C(=O)O)C(=O)O)NC(=O)[C@H](CC(=O)O)NC(C)=O)C(=O)N[C@@H](CC1CCCCC1)C(=O)N[C@@H](CS)C(=O)O	NS3 serine protease		IC50			Hepatitis C virus		0.0015 µM
O=C1CC(=O)OC(CCc2ccc(N3CCCC3=O)c(F)c2)(C2CCCC2)C1	Nonstructural protein 5B		IC50			Hepatitis C virus		1–10 µM
O=C(Nc1ccc2[nH]ncc2c1)c1cc(C2CCNCCN2)c(F)cc1F	Nonstructural protein 5B		IC50			Hepatitis C virus		1–10 µg/mL
O=C(O)[C@H](Cc1ccccc1)N(Cc1ccc(-c2nc3ccccc3o2)cc1)c1ccc(Cl)cc1Cl	RNA-dependent RNA polymerase		IC50			Hepatitis C virus		<5 µM
O=C1OC(CCc2ccc(OCc3ccccc3)cc2)(C2CCCC2)CC(O)=C1Sc1cccc2ccccc12	Nonstructural protein 5B		IC50			Hepatitis C virus		1–10 µM
O=C(O)[C@H](Cc1ccccc1)N(Cc1cccc(-c2cc3ccccc3o2)c1)C(=O)Cc1ccc(Cl)cc1Cl	RNA-dependent RNA polymerase		IC50			Hepatitis C virus		<5 µM
CN1CCN(c2cc(C(=O)Nc3ccc4[nH]ncc4c3)c(F)cc2F)CC1	Nonstructural protein 5B		inhibition			Hepatitis C virus	1 µg/mL	20%
O=C1C[C@@H](c2ccc(O)cc2)Oc2cc(O)cc(O)c21	Replicase complex	J4	inhibition	SYBR Green		Hepatitis C virus	20 µM	6%
CC(C)C[C@H](NC(=O)[C@H](CCC(=O)O)NC(=O)[C@@H](N)CC(=O)O)C(=O)N[C@@H](CCC(=O)O)C(=O)N[C@@H](CC1CCCCC1)C(=O)N[C@@H](CS)C(=O)O	NS3 protease		IC50			Hepatitis C virus		0.12 µM
O=C(O)CC(c1cccs1)N(Cc1ccc(-c2cccs2)cc1)C(=O)Nc1cc(Cl)nc(Cl)c1	RNA-dependent RNA polymerase		IC50			Hepatitis C virus		5–20 µM
CSCC[C@H](NC(=O)[C@@H](N)CCC(=O)O)C(=O)N[C@@H](CCC(=O)O)C(=O)N[C@@H](CCC(=O)O)C(=O)N[C@@H](CS)C(=O)O	NS3 protease		IC50			Hepatitis C virus		21 µM
NN1C(=O)/C(=C\c2ccc(-c3cc(C(F)(F)F)ccc3Cl)o2)SC1=S	NS5B polymerase		IC50			Hepatitis C virus		≤30 µM
CCCOc1ccc(CCC2(C3CCCC3)CC(=O)CC(=O)O2)cc1F	Nonstructural protein 5B		IC50			Hepatitis C virus		1–10 µM
O=C(NO)c1sc2ccccc2c1S(=O)(=O)c1ccccc1	Nonstructural protein 3/4A		IC50	fluorescence	genotype 1b	Hepatitis C virus		126 µM
O=C1NC(=S)S/C1=C/c1ccc(Cl)c(Cl)c1	NS5B polymerase		IC50			Hepatitis C virus		≤30 µM
O=c1cc(-c2ccccc2)oc2cc(O)c(O)cc12	Replicase complex	J4	inhibition	SYBR Green		Hepatitis C virus	20 µM	37.4%
CN1CCN(c2cc(C(=O)Nc3ccc4cn[nH]c4c3)c(F)cc2F)CC1	Reverse transcriptase		inhibition			Hepatitis B virus	0.1 µg/mL	33%
CC(C)c1cccc(CCC2(C3CCCC3)CC(=O)CC(=O)O2)c1	Nonstructural protein 5B		IC50			Hepatitis C virus		1–10 µM
O=C(Nc1ccc2[nH]ncc2c1)c1cc(N2CCN(CCO)CC2)c(F)cc1F	Nonstructural protein 5B		inhibition			Hepatitis C virus	1 µg/mL	15%
CCC[C@H](NC(=O)C1C[C@@H](OC(=O)N2CCc3ccccc3C2)CN1C(=O)[C@@H](NC(=O)[C@@H](NC(=O)c1cnccn1)C(C)C)C(C)C)C(=O)C(=O)N1CC(Oc2ccccc2)C1	HCV NS3 protease		Ki			Hepatitis C virus		<1 µM
C=CCC(N)(B(O)O)C(=O)[C@H](CC(C)C)NC(=O)C(NC(=O)[C@H](Cc1cccc(C)c1)NC(=O)[C@H](CCC(=O)O)NC(=O)[C@H](CC(=O)O)NC(=O)CCC(=O)O)C(C)(C)C	NS3 serine protease		IC50			Hepatitis C virus		0.034 µM
C=C(C[C@H](NC(=O)[C@H](CCC(=O)O)NC(=O)[C@H](CCSC)NC(=O)[C@H](CCC(=O)O)NC(=O)[C@@H](N)CC(=O)O)C(=O)N[C@@H](CS)C(=O)O)c1ccccc1/C=C\C	NS3 protease		IC50			Hepatitis C virus		0.8 µM
COc1cc(F)c(CCC2(C3CCCC3)CC(=O)CC(=O)O2)cc1F	Nonstructural protein 5B		IC50			Hepatitis C virus		1–10 µM
CC[C@H](C)[C@H](NC(=O)[C@@H](NC(=O)[C@H](CCC(=O)O)NC(=O)[C@@H](N)CC(=O)O)C(c1ccccc1)c1ccccc1)C(=O)N[C@@H](CC1CCCCC1)C(=O)O	NS3 protease		IC50			Hepatitis C virus		46 µM
O=C(Nc1ccc2cn[nH]c2c1)c1cc(NCc2ccccn2)c(F)cc1F	Reverse transcriptase		inhibition			Hepatitis B virus	0.01 µg/mL	30%
CC(C)C[C@H](NC(=O)[C@H](CCC(=O)O)NC(=O)[C@@H](N)CC(=O)O)C(=O)N[C@H](C(=O)N[C@@H](CC1CCCCC1)C(=O)N[C@@H](CS)C(=O)O)C(C)C	NS3 protease		IC50			Hepatitis C virus		0.08 µM
O=c1[nH]c2ccccc2c(O)c1C1=NS(=O)(=O)c2ccccc2N1	RNA-dependent RNA polymerase		IC50			Hepatitis C virus		>50 µM
COC(=O)c1ccc(CCC2(C3CCCC3)CC(=O)CC(=O)O2)cc1	Nonstructural protein 5B		IC50			Hepatitis C virus		1–10 µM
O=c1c(O)c(-c2ccc(O)c(O)c2)oc2cc(O)ccc12	Replicase complex	J4	inhibition	SYBR Green		Hepatitis C virus	20 µM	65.8%
COc1cc(C)c(S(=O)(=O)N(Cc2cccc(-c3cc4ccccc4o3)c2)[C@@H](Cc2ccccc2)C(=O)[O-])c(C)c1C	RNA-dependent RNA polymerase		IC50			Hepatitis C virus		<5 µM
O=C1CC(=O)OC(CCc2ccc(OC3CCCC3)c(F)c2)(C2CCCC2)C1	Nonstructural protein 5B		IC50			Hepatitis C virus		1–10 µM
CC[C@@H]1C[C@]1(NC(=O)[C@@H]1C[C@@H](Oc2cc(-c3ccccc3)nc3cc(OC)ccc23)CN1C(=O)[C@H](CC1CCCCC1)NC(=O)OC(C)(C)C)C(=O)NS(C)(=O)=O	NS3/NS4A protease	BMS	IC50			Hepatitis C virus		<0.5 µM
O=C(Nc1ccc2cn[nH]c2c1)c1cc(N2CCNCC2)c(F)cc1F	Reverse transcriptase		IC50			Hepatitis B virus		0.1–1 µg/mL
O=C1/C(=C\c2cc(F)c(F)cc2F)SC(=S)N1NS(=O)(=O)c1ccc(Cl)cc1	NS5B polymerase		IC50			Hepatitis C virus		≤30 µM
C#CCOC(=O)N[C@H](C(=O)N1C[C@H](Oc2cc(-c3ccccc3)nc3cc(OC)ccc23)C[C@H]1C(=O)N[C@]1(C(=O)NS(=O)(=O)C2CC2)C[C@H]1C=C)C(C)(C)C	NS3/NS4A protease	BMS	IC50			Hepatitis C virus		<0.05 µM
O=C(Nc1ccc2[nH]ncc2c1)c1cc(N2CCC(O)CC2)c(F)cc1F	Nonstructural protein 5B		inhibition			Hepatitis C virus	10 µg/mL	81%
CC(=O)N[C@@H](CC(=O)O)C(=O)N[C@@H](CCC(=O)O)C(=O)N[C@H](C(=O)N[C@@H](CC(=O)O)C(=O)N[C@@H](CC1CCCCC1)C(=O)N[C@@H](CS)C(=O)O)C(c1ccccc1)c1ccccc1	NS3 serine protease		IC50			Hepatitis C virus		0.05 µM
CC[C@H](C)[C@H](NC(=O)OC(C)(C)C)C(=O)N1C[C@H](Oc2cc(-c3ccccc3)nc3cc(OC)ccc23)C[C@H]1C(=O)NC1(C(=O)NS(=O)(=O)C2CC2)CC12CCC2	NS3/NS4A protease	BMS	IC50			Hepatitis C virus		<5 µM
O=c1cc(-c2ccc(O)c(O)c2)oc2cc(O)cc(O)c12	Replicase complex	J4	inhibition	SYBR Green		Hepatitis C virus	20 µM	81.7%
COc1ccc2c(O[C@@H]3C[C@@H](C(=O)NC4(C(=O)NS(=O)(=O)C5CC5)CC4)N(C(=O)[C@@H](NC(=O)OC(C)(C)C)C(C)(C)C)C3)cc(-c3ccccc3)nc2c1	NS3/NS4A protease	BMS	IC50			Hepatitis C virus		<0.05 µM
N#Cc1ccc(/C=C2/SC(=S)N(N)C2=O)cc1	NS5B polymerase		IC50			Hepatitis C virus		≤30 µM
CC[C@H](NC(=O)[C@H](C(C)C)N(C)C(=O)[C@@H](NC(=O)[C@H](CC(=O)O)NC(=O)[C@@H](N)CCC(=O)O)C(C)C)C(=O)N[C@@H](CS)C(=O)O	NS3 protease		IC50			Hepatitis C virus		230 µM

6 of the rows above, restated:

compound,protein,strain,read-out,method,conditions,species,tested at,value
O=c1[nH]c2ccccc2c(O)c1C1=NS(=O)(=O)c2ccccc2N1,RNA-dependent RNA polymerase,,IC50,,,Hepatitis C virus,,>50 µM
CC[C@H](C)[C@H](NC(=O)[C@@H](NC(=O)[C@H](CCC(=O)O)NC(=O)[C@@H](N)CC(=O)O)C(c1ccccc1)c1ccccc1)C(=O)N[C@@H](CC1CCCCC1)C(=O)O,NS3 protease,,IC50,,,Hepatitis C virus,,46 µM
CC(C)C[C@H](NC(=O)[C@H](CCC(=O)O)NC(=O)[C@@H](N)CC(=O)O)C(=O)N[C@@H](CCC(=O)O)C(=O)N[C@@H](CC1CCCCC1)C(=O)N[C@@H](CS)C(=O)O,NS3 protease,,IC50,,,Hepatitis C virus,,0.12 µM
O=C(Nc1ccc2cn[nH]c2c1)c1cc(NCc2ccccn2)c(F)cc1F,Reverse transcriptase,,inhibition,,,Hepatitis B virus,0.01 µg/mL,30%
O=c1cc(-c2ccc(O)c(O)c2)oc2cc(O)cc(O)c12,Replicase complex,J4,inhibition,SYBR Green,,Hepatitis C virus,20 µM,81.7%
O=c1cc(-c2ccccc2)oc2cc(O)c(O)cc12,Replicase complex,J4,inhibition,SYBR Green,,Hepatitis C virus,20 µM,37.4%